Measured values taken from PubChem BioAssay AID485367 (National Center for Advancing Translational Sciences (NCATS), 2010).
The entries are a selection whose mix differs from that of the whole data set. Activity calls are given as the source filed them. Calls come from the whole dose curve; as a rule, active = well fitted inhibition curve with a large enough effect; inconclusive = small, poorly fitted or top-dose-only effect, or effect the other way; inactive = flat fitted curve, though single readings scatter.

Protein sequences, listed by entry. Tags and fused reporters are not part of them. Lines headed by an entry give the natural chain unless they say otherwise; changes in a name come on top.
UniProt O15648: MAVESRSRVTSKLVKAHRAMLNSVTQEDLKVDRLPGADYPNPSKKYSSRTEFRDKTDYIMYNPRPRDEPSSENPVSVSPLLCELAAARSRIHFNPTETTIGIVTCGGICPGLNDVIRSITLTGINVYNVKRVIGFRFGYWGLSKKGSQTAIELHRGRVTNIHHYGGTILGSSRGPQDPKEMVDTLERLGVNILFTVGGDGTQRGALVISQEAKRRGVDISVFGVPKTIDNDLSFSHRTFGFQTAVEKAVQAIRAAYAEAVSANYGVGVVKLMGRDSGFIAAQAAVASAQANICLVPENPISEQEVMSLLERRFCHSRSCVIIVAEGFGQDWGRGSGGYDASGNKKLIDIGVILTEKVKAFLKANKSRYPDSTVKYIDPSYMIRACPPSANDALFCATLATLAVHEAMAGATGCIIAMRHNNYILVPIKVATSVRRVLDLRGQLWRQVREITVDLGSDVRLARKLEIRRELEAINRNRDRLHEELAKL

Biological target: ATP-dependent 6-phosphofructokinase (Trypanosoma brucei brucei) (UniProt O15648)
Assay: qHTS Assay to Find Inhibitors of T. brucei phosphofructokinase; note: nearly all actives have a fitted effect of over 60% in size
Details: T. brucei PFK, ADP-Glo luminescence; series mostly up to 57.5 µM; activity, negative = inhibition: at the top concentration
From the text: NIH Molecular Libraries Probe Production Network [MLPCN] NIH Chemical Genomics Center [NCGC] Grant: 1 R03 MH092153-01 PI Name: Malcolm Walkinshaw, University of Edinburgh NCGC Assay Overview: Various species of the protozoan family Trypanosomatidae are responsible for a range of serious human diseases in tropical and subtropical areas of the world. […] Many of the disorders caused by trypanosomatids are fatal if left untreated, but most currently used drugs are inefficient and toxic. […] Oxidative metabolism involving the mitochondrial tricarboxylic acid cycle and oxidative phosphorylation are repressed in these parasites, and recent RNA interference (RNAi) experiments have shown that even partial depletion of certain individual glycolytic enzymes can lead to the death of cultured parasites. One such glycolytic enzyme, phosphofructokinase (PFK), catalyzes the formation of fructose-1,6-bisphosphate (F1,6BP) and ADP from fructose-6-phosphate (F6P) and ATP, and in many metabolic circumstances makes an important contribution to the control of flux through the glycolytic pathway. As a specific glycolytic target, PFK is particularly attractive as it catalyzes the first irreversible step in glycolysis, and structural and kinetic studies have shown very substantial and essential differences from corresponding host enzymes, allowing for the discovery of parasite-selective inhibitors. The goal of this screen is to find small-molecule inhibitors of T. brucei PFK using a biochemical assay that measures PFK activity as a function of ADP production. A luminescence-based assay for T. brucei PFK activity has been developed which uses luciferase to detect production of ADP. Traditional luciferase-based nucleotide detection reagents rely on ATP production as a direct substrate for the luciferase reaction; however, PFK catalyzes the transfer of a phosphate from ATP to F6P, resulting in the net depletion of ATP. To directly measure the ADP product of the PFK reaction, we used the ADP-Glo detection kit (Promega), which utilizes two separate reactions to 1) deplete all remaining uncatalyzed ATP and 2) convert all remaining ADP to ATP, which is then detected through a traditional luciferase-coupled reaction. Compounds were screened as a concentration-titration series that ranged from 57 uM to 0.7 nM.
NCGC Assay Protocol Summary: NCGC Assay Protocol Summary: Substrate buffer was dispensed into white, solid 1536-well plates at 3uL/well in 0.1M triethanolamine (TEA) buffer, pH 8.0, containing final concentrations of 5 mM MgCl2, 0.01% Tween20, 0.5 mM fructose-6-phosphate (F6P) and 0.1mM ATP. Then, 23 nL of compounds or DMSO were delivered to each well using a pin tool. One uL T. brucei PFK (0.1M TEA, 0.01% Tween20, 0.1% bovine serum albumin (BSA) and 1.25nM PFK, final concentrations) was then dispensed, and plates were incubated at room temperature for 45 min. The luminescent detection reagent, ADP-Glo (Promega), was then added in two steps: the first reagent, ADP-Glo (which converts remaining uncatalyzed ATP), was added at 2.5uL/well and incubated for ten minutes at room temperature, and the second component, Kinase Detection reagent (which converts ADP to ATP as a substrate for luciferase-based luminescence), was added immediately after at 5uL/well, followed by one final ten minute room temperature incubation. The plates were measured on a ViewLux plate reader for luminescent signal using a clear filter with a one second exposure. The %Activity was determined from the corrected luminescence values. As no specific T. brucei PFK inhibitors have been identified in the literature, 1x (1.25nM) and 0x PFK enzyme controls (untreated) were included to normalize %Activity of identified inhibitors; 0x enzyme values corresponded to 100%Activity (full inhibition), while 1x PFK enzyme values were used to normalize 0%Activity (no inhibition). Concentration-response curves were fitted to the signals arising from the resulting luminescence. […]

| Structure (SMILES) | activity, negative = inhibition | Potency |
| --- | --- | --- |
| O=[N+]([O-])c1ncn(CCn2cnc([N+](=O)[O-])n2)n1 | inactive: 1.74% | – |
| CC(=O)NC(SC(=S)N(C)C)C(Cl)(Cl)Cl (configuration not stated) | inactive: -0.419% | – |
| O=[N+]([O-])c1ccc(O)c(/C=N/Nc2ccc([N+](=O)[O-])cc2[N+](=O)[O-])c1 | inactive: 4.12% | – |
| O=[As](O)(c1ccccc1)c1ccc(O)cc1 | inactive: 1.02% | – |
| Nc1ccc([As](=O)(O)c2ccc([N+](=O)[O-])cc2)cc1 | inactive: -2.17% | – |
| C(Cc1nn[nH]n1)Cc1nn[nH]n1 | inactive: 3.97% | – |
| O=C(OC1CN2CCC1CC2)c1cccc(Cl)c1 (configuration not stated) | inactive: 1.66% | – |
| O=C(NC1CCS(=O)(=O)C1)NP(=S)(Oc1ccccc1)Oc1ccccc1 (configuration not stated) | inactive: -3.09% | – |
| CCNC(=S)/N=C(\N)N[N+](=O)[O-] | inactive: -1.36% | – |
| c1ccc(-c2nn[nH]n2)c(-c2nn[nH]n2)c1 | inactive: -24.7% | – |
| CCOC(=O)NC(Sc1ccccc1)C(Cl)(Cl)Cl (configuration not stated) | inactive: -2.76% | – |
| Cc1ccc(NP(=O)(Oc2cccc(C)c2)Oc2cccc(C)c2)nc1 | inactive: -9.86% | – |
| COC(=O)c1cc2c(s1)N=C(c1ccccc1)N(C)P2(=O)N1CCOCC1 (configuration not stated) | inactive: -3.94% | – |
| Cc1ccc(OP(=O)(Nc2ccccn2)Oc2ccc(C)cc2)cc1 | inactive: 3.23% | – |
| CC(=O)NC(SC(=S)N(CC(C)C)CC(C)C)C(Cl)(Cl)Cl (configuration not stated) | inactive: -7.63% | – |
| O=C(OC1CN2CCC1CC2)c1ccccc1 (configuration not stated) | inactive: 1.8% | – |
| CCC(=O)N1C2C3N(C(=O)CC)C1C1N(C(=O)CC)C(C(N1C(=O)CC)N3C(=O)CC)N2C(=O)CC | inactive: 8.05% | – |
| Cc1ccccc1OP(=O)(Nc1ccccn1)Oc1ccccc1C | inactive: -3.63% | – |
| CC(NC(=O)COC(=O)C(O)(c1ccccc1)c1ccccc1)c1ccccc1 (configuration not stated) | inactive: 0% | – |
| CN(C)C(=O)Oc1noc2ccccc12 | inactive: -3.75% | – |
| O=c1c2cc([N+](=O)[O-])ccc2[nH]c2c([N+](=O)[O-])cc([N+](=O)[O-])cc12 | inactive: -2.98% | – |
| O=P1(Nc2nc3ccc(Cl)cc3s2)COc2ccccc2O1 (configuration not stated) | inactive: 2.32% | – |
| CCOc1ccc(C2=NCC(CBr)S2)cc1 (configuration not stated) | inactive: 1.66% | – |

| Structure (SMILES) | activity, negative = inhibition | Potency |
| --- | --- | --- |
| CC(C)(C)C(=O)NC(Sc1ccccc1)C(Cl)(Cl)Cl (configuration not stated) | inactive: -1.56% | – |
| CC(=O)c1ccc(N2CC2c2ccncc2)cc1 (configuration not stated) | inactive: 2.33% | – |
| Cc1ccccc1CN(C)C(=O)COC(=O)C(O)(c1ccccc1)c1ccccc1 | inactive: -4.5% | – |
| C[C@@H]1C=CCP(=O)(Oc2ccccc2)O1 (some centres not stated) | inactive: 0.221% | – |
| C[C@H]1OP(=O)(Oc2ccccc2)C[C@@H]2O[C@@H]21 (some centres not stated) | inactive: 19.1% | – |
| CC(=O)Nc1ccc([As](=O)(O)O)c(O)c1 | inactive: -3.1% | – |
| CC(=O)Nc1ccc(Oc2c([N+](=O)[O-])cc([N+](=O)[O-])cc2[N+](=O)[O-])cc1 | inactive: -9.7% | – |
| NC(=O)c1cc([N+](=O)[O-])cc([N+](=O)[O-])c1N | inactive: -5.12% | – |
| Cc1ccc(N/C(=N/P(=O)(N2CCOCC2)N2CCOCC2)N2CCOCC2)cc1 | inactive: -12.5% | – |
| COc1ccccc1OP(=O)(Nc1ccc(C)cn1)Oc1ccccc1OC | inactive: 3.53% | – |
| Cc1ccc(OP(=O)(Nc2nccs2)Oc2ccc(C)cc2)cc1 | inactive: 3.67% | – |
| Clc1ccc(Cl)c(NC2=NCC(CBr)S2)c1 (configuration not stated) | inactive: -0.549% | – |
| CN1CCCC(OC(=O)C(c2ccccc2)c2ccccc2)C1 (configuration not stated) | inactive: -1.89% | – |
| CC(C)CC(=O)NC(Sc1ccc(Cl)cc1)C(Cl)(Cl)Cl (configuration not stated) | inactive: -0.406% | – |
| Nc1cc(N)c2nonc2c1[N+](=O)[O-] | inactive: -3.36% | – |
| Oc1ccccc1CNc1ccccn1 | inactive: 1.66% | – |
| Cc1c2non([O-])c-2c(C)[n+](=O)[n+]1[O-] | inactive: -3.55% | – |
| O=C(NC(Sc1ccncn1)C(Cl)(Cl)Cl)c1ccccc1 (configuration not stated) | inactive: -1.94% | – |
| O=C(O)c1ccccc1[As](=O)(O)O | inactive: -6.57% | – |
| CC(=O)Nc1ccc([As](=O)(O)O)cc1 | inactive: -0.938% | – |
| O=P(Nc1nc2ccc(Cl)cc2s1)(c1ccccc1)c1ccccc1 | inactive: -3.04% | – |
| CCOP(=O)(Nc1ccccc1)OCC | – | inactive |
| Cc1cc(SC(NC(=O)c2ccc(F)cc2)C(Cl)(Cl)Cl)ncn1 (configuration not stated) | inactive: -8.24% | – |

| Structure (SMILES) | activity, negative = inhibition | Potency |
| --- | --- | --- |
| Cc1ccc(NP(=O)(Oc2ccccc2F)Oc2ccccc2F)nc1 | inactive: 2.15% | – |
| O=[N+]([O-])c1cc([N+](=O)[O-])c(CCN2CCOCC2)c([N+](=O)[O-])c1 | inactive: -3.65% | – |
| CCN(N=Nc1nonc1N)c1nonc1N | inactive: 1.91% | – |
| Nc1cccc2ccc([As](=O)(O)O)cc12 | inactive: 1.99% | – |
| O=C(Nc1cc([As](=O)(O)O)ccc1O)c1ccccc1 | inactive: -3.71% | – |
| CC(C)(C)C(=O)NC(Sc1ccncn1)C(Cl)(Cl)Cl (configuration not stated) | inactive: -6.81% | – |
| O=[N+]([O-])c1ncn(CCn2ncnc2[N+](=O)[O-])n1 | inactive: -2.4% | – |
| O=[N+]([O-])c1cccc(NC2=NCC(CBr)S2)c1 (configuration not stated) | inactive: 3.42% | – |
| O=C(O)CNc1ccc([As](=O)(O)O)cc1 | inactive: -5.42% | – |
| COc1ccc(C2=NCC(CBr)S2)cc1 (configuration not stated) | inactive: -9.4% | – |
| CC(=O)N1C2C3N(C(C)=O)C1C1N(C(C)=O)C(C(N1C(C)=O)N3C(C)=O)N2C(C)=O | inactive: 1.11% | – |
| O=[N+]([O-])c1cccc2n[nH]nc12 | inactive: -0.896% | – |
| Cc1ccc(NP(=O)(Oc2ccccc2)Oc2ccccc2)nc1 | inactive: -1.8% | – |
| O=[N+]([O-])c1cc([N+](=O)[O-])c(CCNc2ccccc2)c([N+](=O)[O-])c1 | inactive: 1.09% | – |
| CCc1nc2c(n1)c1c(non1O)c1c2no[n+]1[O-] | inactive: -3.08% | – |
| Nc1ccc([As](=O)(O)c2ccc(N)cc2)cc1 | inactive: -4.07% | – |
| C[N+]1=C2C=CC=CC=C2SC12C([N+](=O)[O-])=CC([N+](=O)[O-])=C[C-]2[N+](=O)[O-] (configuration not stated) | inactive: -5.99% | – |
| CCN(/C(=N/P(=O)(N1CCOCC1)N1CCOCC1)N1CCOCC1)c1ccc(OC)cc1 | inactive: -1.16% | – |
| CC(C)=N/N=C(\N)N[N+](=O)[O-] | inactive: -7.37% | – |
| CN(C)C(=O)OCCc1n(C)cc[n+]1C | inactive: 2.59% | – |
| CC1CCN(C(=O)Oc2c(Cl)cc(Cl)c3cccnc23)CC1 | inactive: 3.07% | – |
